{"source": "patent US20230174624A1", "about": "“FERRITIN VARIANTS WITH INCREASED STABILITY, COMPLEXATION ABILITY AND TRANSFERRIN RECEPTOR AFFINITY” (CELLIS AG, priority 2020, published 2023)", "assay": "Native PAGE gel after doxorubicin encapsulation and purification", "type": "physicochemical", "details": "ferritin-dox after encapsulation, concentrated on 10 or 100 kDa Amicon", "from_the_text": "Native PAGE gel has been performed in order to check the size of the protein after encapsulation and purification. […] A greater degree of aggregation adversely affects the loading efficiency and protein recovery after loading with doxorubicin (FIG. 3).", "data": [{"substance": "WT: human wild-type heavy chain ferritin (SEQ ID NO. 1) [reference compound]", "values": [{"measurement": "forms on native gel (24-mers versus aggregates)", "setting": "listed as wild type ferritin", "result": "mainly forms of double glued frames, aggregates of cages and larger forms of aggregates"}, {"measurement": "forms on native gel (24-mers versus aggregates)", "setting": "listed as wild type protein", "result": "shows a heterogeneity of forms, in addition to cages it contains aggregates of cages and larger forms of aggregates"}]}]}
